Results taken from the supplement of paper PMC9931576.
Human monoclonal antibodies against the spike receptor-binding domain (heavy:light variable regions). IC50 against pseudoviruses bearing the spike of naturally observed variants; lower = stronger; >10 µg/ml means not reached at the top dose. No active / inactive call. The stated detection limit is 0.0005 µg/ml; values near or below 0.001 µg/ml lie at the floor of the assay.

B1: BD56-264 (protein)
chain 1: QVQLVQSGAEVKKPGASVKVSCKASGYTFISYYIHWVRQAPGQGLEWMGIINPTGGSTAYGRKFQGRVTMTSDTSTSTLYMELSSLKSDDTAVYYCARDEGFIPYTNSPDYWGQGTLVTVSS
chain 2: QSALTQPASVSGSPGQSITISCTGTNSDIGIYNRVSWYQQHPGKAPKLLIYEATKRPSGASNRFSGSKSGNTASLTISGLQAEDEAHYYCCSFAGRSTWVFGGGTKLTVL
B2: BD56-260 (protein)
chain 1: QMQLVQSGAEVKKPGASVRVSCKASGYTFSNNYIHWVRQAPGQGLEWVGIINPSGGSTSYAQKFEGRVTMTGDTSTSTVYMDLRSLRSEDTAVYYCARDPSFIPASSYYFDYWGQGTLVTVSS
chain 2: EIVMTQSPATLSVSPGERATLSCRASQSVSSNLAWYQQKPGQAPRLLIYGASTRATGIPGRFSGSGSGTEFTLTISSLQSEDFAVYYCQQYNKWPPPLTFGGGTKVEIK
B3: BD56-217 (protein)
chain 1: QLRLQESGPGLVKPSETLSLTCSVSGGSISSSGDYWGWTRQPPGKGLEWIGIVYSGSTNYNPSLKRRVTMSVDTSKNHFSLKLRSVTAADTAVYFCARTAWFGELDDSWGQGTLVTVSS
chain 2: QSVLTQPPSTSGTPGQRVTISCSGSNSNIGGNYVYWYQQLPGTAPKLLIYGNNRRPSGVPDRISGSKSGTSASLAISGLRSEDEADYYCAAWDDSLSGPVFGGGTTLTVL
B4: BD56-261 (protein)
chain 1: QVQLVQSGAALRKPGASVKVSCKTSGYRFTRYGITWVRQAPGQGLEWMGWISPYNGNTIYAQKLQGRVTMTTDTSTSTAYMELRSLRSDDTAVYYCAARVGYDSSGWYASDVFDMWGQGTLVTVSS
chain 2: EIVLTQSPGTLSLSPGGRATLSCRASQSVSSSFLAWYQQKPGQAPRLLIYGASNRATGIADRFRGSGSGTDFTLTISRLEPEDFAVYYCHHYGDSPPNTFGQGTKLEMK
B5: BD56-224 (protein)
chain 1: QVRLVQSGAEVKKPGASVILSCKASENSLSSHYMHWVRQAPGQGLEWMGIINPSGSSTGYAQKFQGRVTMTCDTSTNTVFMELSRLRSEDTAVYYCARDGGYIPSLYGMDVWGQGTTVTVSS
chain 2: EILLTQSPATLSLSAGERVTLSCRASQSVRSYLAWYQQKPGQAPRLLIYDASKRATGVPARFSGSGSGTDFTLTISSLEPEDFAVYYCQQRTNWLHSFGQGTKLEIK
B6: BD56-229 (protein)
chain 1: EVQLVESGGGLVQPGGSLRLSCAASEITVSSNYMNWVRQAPGKGLEWVSVIYSGGSTFYADSVKGRFTISRDNSKNTLYLQMNSLRAEDTAVYYCARDLIVYGMDVWGQGTTVTVSS
chain 2: IQLTQSPSSLSASVGDRVTITCRASQGISSHLAWYQQKPGRAPKLLIYGASTLQSGVPSRFSGSGSGTDFTLTISSLQPEDFATYYCQQLDSYPLFGQGTKLEIK
B7: BD56-219 (protein)
chain 1: QVQLVESGGGVVQPGRSLRLSCAASGFTFNTYAMHWVRQAPGKGLEWVAVISYDGSNKYYADSAKGRFTISRDNSKNTLFLQMNSLRAEDTALFYCARDSETLAAALANSGLDSWGQGTLVTVSS
chain 2: SYVLTQPPSVSVAPGKTARITCGGISIGSKNVHWYQQKPGQAPVLVIYYDTDRPSGIPERFSGSNSGNTATLTISRVDAGDEADYYCQVWDTGVVFGGGTKLTVL

Experiments:
Assay in all cases: pseudovirus neutralization IC50; higher = weaker neutralization
[1] = target: SARS-CoV-2 Omicron BA.1 spike pseudovirus
Method: (§1)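 Single-round VSV luciferase pseudovirus mixed with antibody dilutions for 1 h and put on Huh-7 cells for about a day; IC50 from the dose curve.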

[2] = target: SARS-CoV-2 Omicron BA.2 spike pseudovirus
Method: as §1

[3] = target: SARS-CoV-2 Omicron BA.2.75 spike pseudovirus
Method: as §1

[4] = target: SARS-CoV-2 Omicron BA.5 spike pseudovirus
Method: as §1

[5] = target: SARS-CoV-2 Omicron BQ.1.1 spike pseudovirus
Method: as §1

[6] = target: SARS-CoV-2 Omicron XBB spike pseudovirus
Method: as §1

[7] = target: SARS-CoV-2 early D614G spike pseudovirus
Method: as §1

Binder | pseudovirus neutralization IC50 [1] | pseudovirus neutralization IC50 [2] | pseudovirus neutralization IC50 [3] | pseudovirus neutralization IC50 [4] | pseudovirus neutralization IC50 [5] | pseudovirus neutralization IC50 [6] | pseudovirus neutralization IC50 [7]
B1 | > 10 µg/mL | > 10 µg/mL | > 10 µg/mL | > 10 µg/mL | > 10 µg/mL | > 10 µg/mL | > 10 µg/mL
B2 | > 10 µg/mL | > 10 µg/mL | > 10 µg/mL | > 10 µg/mL | > 10 µg/mL | > 10 µg/mL | > 10 µg/mL
B3 | > 10 µg/mL | > 10 µg/mL | > 10 µg/mL | > 10 µg/mL | > 10 µg/mL | > 10 µg/mL | > 10 µg/mL
B4 | > 10 µg/mL | > 10 µg/mL | > 10 µg/mL | > 10 µg/mL | > 10 µg/mL | > 10 µg/mL | > 10 µg/mL
B5 | > 10 µg/mL | > 10 µg/mL | > 10 µg/mL | > 10 µg/mL | > 10 µg/mL | > 10 µg/mL | > 10 µg/mL
B6 | 0.0185 µg/mL | 0.0146 µg/mL | 0.019 µg/mL | 0.0147 µg/mL | 2.31 µg/mL | 0.408 µg/mL | 0.00742 µg/mL
B7 | > 10 µg/mL | > 10 µg/mL | > 10 µg/mL | > 10 µg/mL | > 10 µg/mL | > 10 µg/mL | > 10 µg/mL
